Results of unrelated studies side by side (data: NIAID ChemDB).

All rows: whole-cell or culture tests; species: Cryptosporidium parvum; read-out: EC50

a–b is a range or a potency band. An empty or dashed field is not shown. Rows are shuffled and stem from different studies. ECn: concentration that inhibits the pathogen or its effect by n%.

smiles	cell line	strain or isolate	result
CCOC(=O)c1oc2cc(O)cc(O)c2c(=O)c1-c1cccc(Br)c1			3.38 µg/mL
O=c1cc(-c2ccc(O)c(O)c2)oc2cc(O)cc(O)c12	HCT-8		>100 µM
CS(=O)(=O)c1cnc(NC(=O)c2ccccc2O)s1			4.6 µg/mL
O=c1c(O)c(-c2ccccc2)oc2cc(O)cc(O)c12	HCT-8		>100 µM
CC1(C)N=C(N)N=C(N)N1c1ccc(Cl)cc1	L929	Calf isolate	>20 µg/mL
CC[C@@H]1O[C@@H]([C@]2(C)C[C@@H](C)[C@](O)([C@]3(C)CC[C@@H]([C@@H](O)[C@]4(O)O[C@H](C[C@@]5(O)O[C@@H]([C@@H](C)[C@H](O)C[C@@H]6O[C@H]([C@@H](C)C(=O)O)[C@@H](C)C[C@H]6C)CC[C@@H]5C)[C@@H](C)C[C@H]4C)O3)O2)CC[C@@]1(C)O	HCT-8		<1 µM
CCCCCCCCCCOc1cc2c(=O)c(C(=O)OCC)c[nH]c2cc1OCC			>50 µM
CCCCN(CCCC)CCC(O)c1cc2c(Cl)cc(Cl)cc2c2cc(C(F)(F)F)ccc12	L929	Calf isolate	<4 µg/mL
Cc1ccc(C(=O)Nc2ccc(S(=O)(=O)O)c3cc(S(=O)(=O)O)cc(S(=O)(=O)O)c23)cc1NC(=O)c1cccc(NC(=O)Nc2cccc(C(=O)Nc3cc(C(=O)Nc4ccc(S(=O)(=O)O)c5cc(S(=O)(=O)O)cc(S(=O)(=O)O)c45)ccc3C)c2)c1	HCT-8		>1 µM
O=S(=O)(F)Cc1ccccc1			>1000 µM
CN[C@@H]1[C@@H](O)[C@@H](O[C@@H]2[C@@H](O)[C@H](O[C@H]3O[C@H]([C@@H](C)O)[C@@H](O)[C@H](O)[C@H]3N)[C@@H](N)C[C@H]2N)OC[C@]1(C)O	APH-CACO-2		<1000 µg/mL
CC(C)N=C(N)/N=C(\N)Nc1ccc(Cl)cc1	L929	Calf isolate	<20 µg/mL
OO			500–750 µM
Cc1cn([C@H]2C[C@H](N=[N+]=[N-])[C@@H](CO)O2)c(=O)[nH]c1=O	L929	Calf isolate	<20 µg/mL
CCCN(CCC)c1c([N+](=O)[O-])cc(C(F)(F)F)cc1[N+](=O)[O-]	MDCK		2 µM
CCCN(CCC)c1c([N+](=O)[O-])cc(C(F)(F)F)cc1[N+](=O)[O-]			0.7 µM
CC[C@@]1([C@@H]2O[C@@H]([C@H]3O[C@@](O)(CO)[C@H](C)C[C@@H]3C)C[C@@H]2C)CC[C@H]([C@]2(C)CC[C@]3(C[C@H](O)[C@@H](C)[C@@H]([C@@H](C)[C@@H](OC)[C@H](C)C(=O)O)O3)O2)O1	L929	Calf isolate	<0.8 µg/mL
O=c1c(O)c(-c2ccc(O)c(O)c2)oc2cc(O)cc(O)c12	HCT-8		30 µM
Nc1ncnc2c1ncn2Cc1c(F)cccc1Cl	L929	Calf isolate	<0.8 µg/mL
CO[C@@H]1[C@@H](OC)[C@H](C)[C@@](O)(CC(=O)O)O[C@H]1[C@H](C)[C@H]1O[C@@]2(CC[C@@](C)([C@H]3CC[C@@](C)([C@@H]4O[C@@H]([C@H]5O[C@](C)(O)[C@H](C)C[C@@H]5C)C[C@@H]4O[C@@H]4C[C@H](OC)[C@@H](OC)[C@H](C)O4)O3)O2)C[C@H](O)[C@H]1C			<0.5 µg/mL
CCCN(CCC)c1c([N+](=O)[O-])cc(S(C)(=O)=O)cc1[N+](=O)[O-]			4.5 µM
NC[C@@H]1O[C@H](O[C@H]2[C@@H](O)[C@H](O[C@@H]3[C@@H](O)[C@H](N)C[C@H](N)[C@H]3O[C@H]3O[C@H](CO)[C@@H](O)[C@H](O)[C@H]3N)O[C@@H]2CO)[C@H](N)[C@@H](O)[C@@H]1O	Caco2		<100 µM
CCN(CC)CCCC(C)Nc1ccnc2cc(Cl)ccc12	HCT-8		>1 µM

The last 2 rows once more:

smiles,cell line,strain or isolate,result
NC[C@@H]1O[C@H](O[C@H]2[C@@H](O)[C@H](O[C@@H]3[C@@H](O)[C@H](N)C[C@H](N)[C@H]3O[C@H]3O[C@H](CO)[C@@H](O)[C@H](O)[C@H]3N)O[C@@H]2CO)[C@H](N)[C@@H](O)[C@@H]1O,Caco2,,<100 µM
CCN(CC)CCCC(C)Nc1ccnc2cc(Cl)ccc12,HCT-8,,>1 µM